Anti-infective test results gathered from many reports (values: NIAID ChemDB through PubChem).

All rows: growth or infection tests

Blank or dashed fields: not listed here. Percent inhibition refers to the dose given; in toxicity tests it is the harm to the cells. Rows are shuffled and stem from different studies. Zones are inhibition diameters on agar. MIC50, MIC90 and the like: level of inhibition, or share of isolates inhibited.

compound,agent,strain,mutations,read by,conditions,endpoint,dose,value
CO[C@H]1/C=C/O[C@@]2(C)Oc3c(C)c(O)c4c(O)c(c5c(c4c3C2=O)NC2(CCN(CC(C)C)CC2)N=5)=NC(=O)/C(C)=C\C=C\[C@H](C)[C@H](O)[C@@H](C)[C@@H](O)[C@@H](C)[C@H](OC(C)=O)[C@@H]1C,Mycobacterium avium complex,2212-4,-,-,-,MBC,-,32 µg/mL
CC(=O)O.Cc1c(N2CCCNCC2)c(F)cn2c(=O)c(C(=O)O)cc(C3CC3)c12,Mycobacterium smegmatis,ATCC114,-,-,-,MIC,-,3.1 µg/mL
CCc1cc(C(N)=S)ccn1,Mycobacterium avium intracellulare,Serovar 8,-,-,-,inhibition,5 µg/mL,87%
O=C(Nc1ccc(Cl)c(Cl)c1)c1cc(Cl)ccc1OP(=O)(c1ccccc1)c1ccccc1,Mycobacterium kansasii,My 235/80,-,-,7 d,MIC,-,4 µM
C[C@@H]1CN(c2c(F)c(N)c3c(=O)c(C(=O)O)cn(C4CC4)c3c2F)C[C@H](C)N1,Mycoplasma hominis,37 strains,-,-,-,MIC90,-,0.063 µg/mL
CC1CN(c2c(F)cc3c(=O)c(C(=O)O)cn(C4CC4)c3c2Cl)CCN1,Mycobacterium smegmatis,KD1163 (GRYA+),-,-,-,MIC99,-,0.029 µg/mL
CN(C)c1cc(NC(=O)CNC(C)(C)C)c(O)c2c1C[C@H]1C[C@H]3[C@H](N(C)C)C(=O)C(C(N)=O)=C(O)[C@@]3(O)C(=O)C1=C2O,Mycobacterium massiliense,X72,-,broth dilution,-,MIC,-,2 µg/mL
NCC[C@H](O)C(=O)N[C@@H]1C[C@H](N)[C@@H](O[C@H]2O[C@H](CN)[C@@H](O)[C@H](O)[C@H]2O)[C@H](O)[C@H]1O[C@H]1O[C@H](CO)[C@@H](O)[C@H](N)[C@H]1O,Mycobacterium avium,ATCC 25291,-,-,-,Mean MIC,-,6.25 µg/mL
CC[C@H]1OC(=O)[C@H](C)[C@@H](O[C@H]2C[C@@](C)(OC)[C@@H](O)[C@H](C)O2)[C@H](C)[C@@H](O[C@@H]2O[C@H](C)C[C@H](N(C)C)[C@H]2O)[C@](C)(OC)C[C@@H](C)C(=O)[C@H](C)[C@@H](O)[C@]1(C)O,Mycobacterium massiliense,X19,-,broth dilution,-,MIC,-,0.125 µg/mL
CCCCCCCNC(=O)Nc1ccc(S(=O)(=O)Nc2cc(C)on2)cc1,Mycobacterium kansasii,6509/96 clinical isolate,-,broth dilution / absorbance,21 d,MIC100,-,8 µM
Cc1c(N2CCC(N3CCCCC3)CC2)c(F)cn2c(=O)c(C(=O)O)cc(C3CC3)c12.O=C(O)C(F)(F)F,Mycobacterium smegmatis,ATCC114,-,-,-,MIC,-,0.78 µg/mL
COc1cc(Cc2cnc(N)nc2N)cc(OC)c1Br,Mycobacterium ulcerans,Isolate 5143,-,-,-,MIC,-,2 µg/mL
O=C(Nc1ccccc1)c1ccccc1OP(=O)(Oc1ccccc1)Oc1ccccc1,Mycobacterium kansasii,My 6509/96,-,-,7 d,MIC,-,125 µM
CCc1cc(C(N)=S)ccn1,Mycobacterium avium,ATCC 25291,-,-,-,Mean MIC,-,>2.8 µg/mL
CCCCCNC(=O)Nc1ccc(S(=O)(=O)Nc2cc(C)on2)cc1,Mycobacterium kansasii,235/80,-,broth dilution / absorbance,21 d,MIC100,-,500 µM
Cc1nn(-c2ccccc2)c2c1C(c1cn(-c3ccccc3)nc1-c1ccc(F)cc1)C1=C(NC(C)(c3cc(O)c(Cl)c(O)c3)NC1=O)O2,Mycobacterium phlei,NCIM 2240,-,agar diffusion / agar,-,zone,0.5 mg/mL,1.5 mm
CN[C@@H]1[C@H](O[C@H]2[C@H](O[C@H]3[C@H](O)[C@@H](O)[C@H](N=C(N)N)[C@@H](O)[C@@H]3N=C(N)N)O[C@@H](C)[C@]2(O)C=O)O[C@@H](CO)[C@H](O)[C@H]1O,Mycobacterium avium complex,isolate C-29 30,-,-,-,MIC,-,400 µg/mL
CCC1CN(c2c(F)cc3c(=O)c(C(=O)O)cn(C4CC4)c3c2F)CCN1,Mycobacterium smegmatis,KD1998 (GYRA D95N),-,-,-,MIC99,-,1.4 µg/mL
O=C(Nc1ccc(C(F)(F)F)cc1)c1cc(Br)ccc1OP(=O)(OCc1ccccc1)OCc1ccccc1,Mycobacterium kansasii,My 235/80,-,-,14 d,MIC,-,16 µM
Cc1nn(-c2ccccc2)c2c1C(c1cn(-c3ccccc3)nc1-c1ccc(F)cc1)C1=C(NC(C)(c3cc(O)c(I)cc3Cl)NC1=O)O2,Mycobacterium phlei,NCIM 2240,-,agar diffusion / agar,-,zone,0.5 mg/mL,7.1 mm
CC1CN(c2c(F)cc3c(=O)c(C(=O)O)cn(C4CC4)c3c2F)CCN1,Mycobacterium smegmatis,KD1995 (GYRA D95H),-,-,-,MIC99,-,1 µg/mL
Cc1nn(-c2ccccc2)c2c1C(c1cn(-c3ccccc3)nc1-c1ccc(Cl)cc1)C1=C(NC(C)(c3cc(O)c(Cl)c(O)c3)NC1=O)O2,Mycobacterium phlei,NCIM 2240,-,agar diffusion / agar,-,zone,0.5 mg/mL,4 mm
CC(=O)O[C@H]1C[C@@]2(C)[C@@H](C[C@@H](O)[C@H]3[C@@]4(C)CC[C@@H](O)[C@@H](C)[C@@H]4CC[C@@]32C)/C1=C(\CCC=C(C)C)C(=O)O,Mycobacterium avium,ATCC 25291,-,-,-,Median MIC,-,20 µg/mL
CCCCNC(=O)Nc1ccc(S(=O)(=O)Nc2cc(C)on2)cc1,Mycobacterium kansasii,6509/96 clinical isolate,-,broth dilution / absorbance,21 d,MIC100,-,500 µM
COc1c(N2CCNC(C)C2)c(F)cc2c(=O)c(C(=O)O)cn(C3CC3)c12,Mycobacterium smegmatis,KD1991 (GYRA D95Y),-,-,-,MIC99,-,0.47 µg/mL
NC[C@H]1O[C@H](O[C@H]2[C@H](O)[C@@H](O[C@H]3O[C@H](CO)[C@@H](O)[C@H](N)[C@H]3O)[C@H](N)C[C@@H]2N)[C@H](O)[C@@H](O)[C@@H]1O,Mycobacterium avium intracellulare,N-486 (HIV-),-,-,-,MIC,-,8 µg/mL
CC1CN(c2cc3c(cc2F)c(=O)c(C(=O)O)cn3C2CC2)CC(C)N1,Mycobacterium smegmatis,KD1987 (GYRA A91V),-,-,-,MIC99,-,0.98 µg/mL
O=C(Nc1ccc(C(F)(F)F)cc1)c1cc(Cl)ccc1OP(=O)(OCc1ccccc1)OCc1ccccc1,Mycobacterium kansasii,My 235/80,-,-,7 d,MIC,-,16 µM
CO[C@H]1/C=C/O[C@@]2(C)Oc3c(C)c(O)c4c(O)c(c(N5CCN(Cc6c(C)cc(C)cc6C)CC5)c(O)c4c3C2=O)NC(=O)/C(C)=C\C=C\[C@H](C)[C@H](O)[C@@H](C)[C@@H](O)[C@@H](C)[C@H](OC(C)=O)[C@@H]1C,Mycobacterium avium,50 strains,-,-,-,MIC50,-,0.05 µg/mL
O=C(Nc1ccc(C(F)(F)F)cc1)c1cc(Br)ccc1OP(=O)(c1ccccc1)c1ccccc1,Mycobacterium kansasii,My 235/80,-,-,14 d,MIC,-,8 µM
CNCC1CN(c2c(F)cn3c(=O)c(C(=O)O)cc(C4CC4)c3c2C)CCO1.Cl,Mycobacterium smegmatis,ATCC114,-,-,-,MIC,-,1.56 µg/mL
COc1cc(Cc2cnc(N)nc2N)cc(OC)c1OC,Mycobacterium ulcerans,Isolate 842,-,-,-,MIC,-,>16 µg/mL
CCc1c(N2CCC(N)C2)c(F)cn2c(=O)c(C(=O)O)cc(C3CC3)c12.Cl,Mycobacterium smegmatis,ATCC114,-,-,-,MIC,-,50 µg/mL
Cc1cc(-c2cc3c(cc2F)c(=O)c(C(=O)O)cn3C2CC2)cc(C)n1,Mycobacterium avium,3337,-,-,-,MBC,-,8 µg/mL
O=C(Nc1ccccc1)c1ccccc1OP(=O)(c1ccccc1)c1ccccc1,Mycobacterium kansasii,My 235/80,-,-,14 d,MIC,-,125 µM
CO[C@@H]1C[C@@H](C[C@H]2CC[C@H](C)[C@H]([C@@H](C)C(=O)O)O2)O[C@]2(O[C@](C)([C@H]3CC[C@@](C)([C@@H]4O[C@@H]([C@H]5O[C@@](O)(CO)[C@H](C)C[C@@H]5C)C[C@@H]4C)O3)C[C@H]2C)[C@@H]1C,Mycobacterium marinum,ATCC BAA-535,-,resazurin,-,MIC,-,2.5 µg/mL
CCCCN1C(=O)C2(C3=C(CN2C)C(=O)c2ccccc2C3=O)c2ccccc21,Mycobacterium luteus,-,-,agar diffusion,-,MIC,-,250 µg/mL
O=C(Nc1ccc(Br)cc1)c1cc(Cl)ccc1OP(=O)(OCc1ccccc1)OCc1ccccc1,Mycobacterium kansasii,My 6509/96,-,-,21 d,MIC,-,32 µM
NNC(=S)N/N=C/c1cn(CC2CCC2)c2ccccc12,Mycobacterium bovis BCG,1173P2,-,broth dilution,24 h,MIC100,-,>500 µg/mL
CN1CC2=C(C(=O)c3ccccc3C2=O)C12C(=O)Nc1ccccc12,Mycobacterium luteus,-,-,agar diffusion,-,zone,50 µg/mL,13 mm
CNc1ccc2oc(C[C@@H]3OC4(CC[C@@H]3C)O[C@H](C(C)C(=O)c3ccc[nH]3)[C@H](C)C[C@H]4C)nc2c1C(=O)O,Mycobacterium aurum,-,C330 deletion,resazurin,-,MIC,-,0.64 µg/mL
COc1ccc(-c2nn(-c3ccccc3)cc2C2C3=C(NC(C)(c4cc(O)ccc4Cl)NC3=O)Oc3c2c(C)nn3-c2ccccc2)cc1,Mycobacterium phlei,NCIM 2240,-,agar diffusion / agar,-,MIC,-,1000 µg/mL
C(=N\Nc1nncs1)/c1cn(CC2CCC2)c2ccccc12,Mycobacterium bovis BCG,1173P2,-,broth dilution,24 h,MIC100,-,31.25 µg/mL
CC(C)N1CCN(c2c(F)cc3c(=O)c(C(=O)O)cn(C4CC4)c3c2F)CC1,Mycobacterium smegmatis,KD1995 (GYRA D95H),-,-,-,MIC99,-,3.8 µg/mL
CC1COc2c(N3CCN(C)CC3)c(F)cc3c(=O)c(C(=O)O)cn1c23,Mycoplasma hominis,37 strains,-,-,-,MIC50,-,1 µg/mL
Cc1cc(NS(=O)(=O)c2ccc(NC(=O)N3CCC3)cc2)no1,Mycobacterium kansasii,235/80,-,broth dilution / absorbance,7 d,MIC100,-,4 µM
Cc1ccc2c(c1)C1(C(=O)N2C)C2=C(CN1C)C(=O)c1ccccc1C2=O,Mycobacterium luteus,-,-,agar diffusion,-,zone,50 µg/mL,15 mm
CO[C@H]1/C=C/O[C@@]2(C)Oc3c(C)c(O)c4c(O)c(c5c(c4c3C2=O)NC2(CCN(CC(C)C)CC2)N=5)=NC(=O)/C(C)=C\C=C\[C@H](C)[C@H](O)[C@@H](C)[C@@H](O)[C@@H](C)[C@H](OC(C)=O)[C@@H]1C,Mycobacterium avium complex,40 isolates,-,-,-,MIC90,-,1.6 µg/mL
CCNC(=O)Nc1ccc(S(=O)(=O)Nc2cc(C)on2)cc1,Mycobacterium kansasii,6509/96 clinical isolate,-,broth dilution / absorbance,14 d,MIC100,-,500 µM
Cn1cc(/C=N/Nc2nncs2)c2ccccc21,Mycobacterium bovis BCG,1173P2,-,broth dilution,48 h,MIC100,-,62.5 µg/mL
NC[C@@H]1O[C@H](O[C@H]2[C@@H](O)[C@H](O[C@@H]3[C@@H](O)[C@H](N)C[C@H](N)[C@H]3O[C@H]3O[C@H](CO)[C@@H](O)[C@H](O)[C@H]3N)O[C@@H]2CO)[C@H](N)[C@@H](O)[C@@H]1O,Mycobacterium avium,ATCC 25291,-,-,-,Mean MIC,-,11.5 µg/mL
CC[C@@H](CO)NCCN[C@@H](CC)CO,Mycobacterium avium intracellulare,N-481 (HIV-),-,-,-,MIC,-,32 µg/mL
CN1CC2=C(C(=O)c3ccccc3C2=O)C12C(=O)c1cccc3cccc2c13,Mycobacterium luteus,-,-,agar diffusion,-,zone,50 µg/mL,8 mm
O=C(Nc1ccc(C(F)(F)F)cc1)c1cc(Cl)ccc1OP(=O)(Oc1ccccc1)Oc1ccccc1,Mycobacterium kansasii,My 235/80,-,-,7 d,MIC,-,2 µM

3 of the rows above, restated:

compound | agent | strain | mutations | read by | conditions | endpoint | dose | value
CO[C@@H]1C[C@@H](C[C@H]2CC[C@H](C)[C@H]([C@@H](C)C(=O)O)O2)O[C@]2(O[C@](C)([C@H]3CC[C@@](C)([C@@H]4O[C@@H]([C@H]5O[C@@](O)(CO)[C@H](C)C[C@@H]5C)C[C@@H]4C)O3)C[C@H]2C)[C@@H]1C | Mycobacterium marinum | ATCC BAA-535 | - | resazurin | - | MIC | - | 2.5 µg/mL
Cn1cc(/C=N/Nc2nncs2)c2ccccc21 | Mycobacterium bovis BCG | 1173P2 | - | broth dilution | 48 h | MIC100 | - | 62.5 µg/mL
CN(C)c1cc(NC(=O)CNC(C)(C)C)c(O)c2c1C[C@H]1C[C@H]3[C@H](N(C)C)C(=O)C(C(N)=O)=C(O)[C@@]3(O)C(=O)C1=C2O | Mycobacterium massiliense | X72 | - | broth dilution | - | MIC | - | 2 µg/mL